Mutational tolerance of the Zika virus NS2B-NS3 protease

Protein: NS2B and the protease part of NS3 of Zika virus strain MR766. Positions count along the chain below; NS2B spans 2-131 and NS3 starts at 132.
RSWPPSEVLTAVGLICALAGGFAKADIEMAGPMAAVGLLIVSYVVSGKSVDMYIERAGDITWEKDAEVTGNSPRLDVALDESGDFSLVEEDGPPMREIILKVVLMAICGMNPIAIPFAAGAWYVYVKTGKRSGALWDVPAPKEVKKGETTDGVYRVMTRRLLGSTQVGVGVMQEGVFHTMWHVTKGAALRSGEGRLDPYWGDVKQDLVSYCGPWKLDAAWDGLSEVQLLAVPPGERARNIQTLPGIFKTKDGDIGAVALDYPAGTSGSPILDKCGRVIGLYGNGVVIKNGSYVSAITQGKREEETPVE

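Mutant virus pools were grown in human Huh-7.5 cells. Sequencing of three replicate libraries (two for positions 207-308) was averaged into one effect per change. The study looked for pockets that tolerate few changes, as a guide for inhibitor design.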

Scale: log2 effect, wild type = 0; the lower, the more harmful to the virus.
Each entry names the wild-type residue, its position and the residue put in its place.
Values above 0 are not proof of better growth: six high scorers were tested one by one, five grew less well than wild type and one about as well.
Position 1 still belongs to NS2A. In the paper, -1 or higher counts as tolerated.
An asterisk is a stop codon; stop codons read about -7, near the floor of the assay.
Positions 1-103, 104-206 and 207-308 were made and measured as separate libraries.

| # | substitution | log2 growth effect |
|---|---|---|
| 1 | I240S | -3.23 |
| 2 | K248D | -5.89 |
| 3 | R155D | -4.80 |
| 4 | G284S | -6.27 |
| 5 | G175I | -4.05 |
| 6 | K300H | -1.57 |
| 7 | K250F | -6.17 |
| 8 | E63T | -3.02 |
| 9 | Q173L | -5.27 |
| 10 | V171F | -5.56 |
| 11 | G120Q | -6.13 |
| 12 | T61M | -0.37 |
| 13 | V36H | -4.35 |
| 14 | L243A | -1.81 |
| 15 | G152L | -7.40 |
| 16 | K185S | -4.84 |
| 17 | P94D | -1.10 |
| 18 | R301Q | -5.55 |
| 19 | P233A | -6.25 |
| 20 | C108T | -2.52 |
| 21 | V88T | -4.46 |
| 22 | G290M | -4.97 |
| 23 | G175D | -3.43 |
| 24 | I246L | -0.11 |
| 25 | V307N | -1.38 |
| 26 | A19C | -0.62 |
| 27 | G255T | -7.05 |
| 28 | Q298M | -4.94 |
| 29 | V286Q | -5.20 |
| 30 | Q241E | -1.82 |
| 31 | S46E | -6.16 |
| 32 | G163M | -4.11 |
| 33 | K146R | -0.88 |
| 34 | R160P | -7.02 |
| 35 | G109N | -5.21 |
| 36 | V126M | -0.25 |
| 37 | L161S | -6.14 |
| 38 | V138Q | -4.47 |
| 39 | R155H | -5.68 |
| 40 | I246N | -5.21 |
| 41 | I278V | -4.63 |
| 42 | A23M | -2.06 |
| 43 | R155I | -3.40 |
| 44 | D260C | -4.90 |
| 45 | P233L | -5.20 |
| 46 | V208C | -0.44 |
| 47 | L39M | -0.79 |
| 48 | G290Q | -5.37 |
| 49 | D26S | -0.36 |
| 50 | Y123Q | -2.61 |
| 51 | A114L | -1.47 |
| 52 | Q241D | -5.85 |
| 53 | A23Y | -5.77 |
| 54 | V226P | -5.77 |
| 55 | R301Y | -3.26 |
| 56 | Q241K | -7.37 |
| 57 | L271H | -4.71 |
| 58 | G175T | -5.79 |
| 59 | G163E | -5.00 |
| 60 | D91A | -1.74 |
| 61 | P306M | -0.64 |
| 62 | F247Q | -5.82 |
| 63 | D65A | -5.98 |
| 64 | P213E | -7.03 |
| 65 | W3A | -6.80 |
| 66 | W220* | -8.10 |
| 67 | M29F | 0.31 |
| 68 | K300A | -4.87 |
| 69 | M29S | -0.78 |
| 70 | V50P | -6.60 |
| 71 | D80P | -7.38 |
| 72 | S6C | 0.51 |
| 73 | V68C | -2.93 |
| 74 | P213G | 1.55 |
| 75 | L228N | -5.41 |
| 76 | S294P | -5.42 |
| 77 | P213H | -1.72 |
| 78 | L79D | -5.69 |
| 79 | E174I | -5.66 |
| 80 | I113S | -4.67 |
| 81 | S42G | 0.36 |
| 82 | D91C | 0.09 |
| 83 | E303D | -0.61 |
| 84 | S224R | -7.40 |
| 85 | A114N | -4.66 |
| 86 | L135* | -7.72 |
| 87 | S42Y | -5.57 |
| 88 | L280H | -3.98 |
| 89 | L223Q | -1.49 |
| 90 | L243V | -1.94 |
| 91 | W214S | -8.98 |
| 92 | L9S | -4.40 |
| 93 | I27G | -4.80 |
| 94 | V167P | -6.55 |
| 95 | N71W | -3.68 |
| 96 | M180C | -4.87 |
| 97 | L9E | -4.55 |
| 98 | N111I | -3.59 |
| 99 | V50N | -2.80 |
| 100 | V12L | -3.69 |
| 101 | R236A | 1.52 |
| 102 | S86N | -4.79 |
| 103 | G255Q | -5.66 |
| 104 | V285T | -5.38 |
| 105 | C108V | -4.86 |
| 106 | Y123D | -5.38 |
| 107 | V103M | -1.01 |
| 108 | N289V | -6.18 |

Values reported by Ni et al. 2025 (doi:10.1038/s41467-025-63602-z).